Measurements published in the supplement of paper PMC9931576.
Human monoclonal antibodies against the spike receptor-binding domain (heavy:light variable regions). IC50 against pseudoviruses bearing the spike of naturally observed variants; lower = stronger; >10 µg/ml means not reached at the top dose. No active / inactive call. The stated detection limit is 0.0005 µg/ml; values near or below 0.001 µg/ml lie at the floor of the assay.

B1: BD57-0122 (protein)
chain 1: EVQLVESGGGLVQPGGSLRLSCVGLGSGFTFSTYDMHWVRRATGKGLEWVSGVGSIGDIHYGDSVKGRFTISRENSKNSLDLQMNSLTAGDTAVYYCVTRGASVSFEHWGQGTLVTVSS
chain 2: QPVLTQPPSASAFLGASVTLTCTLSNGYSNYIVDWYQQRPGKGPRFVMRVSTGGIMGSRGDDIPDRFSVLGSGLNRFLTINNVQEEDEGDYHCGADHGDGSTFVWVFGGGTKVTVL
B2: BD57-0192 (protein)
chain 1: QVQLVESGGGVVQPGKSLRLSCAASGFTFSIYGMHWVRQAPGKGLEWVAIIWFDGGKTYYVDSVKGRFTISRDNSKNTLYLQMNSLRAEDTAVYYCARDSGGYYGVDYWGQGTLVTVSS
chain 2: NFMLTQPHSVSESPGKTVTISCTRSSGSIASNYVQWYQQRPGSAPTTVIFEDNQRPSGVPDRFSGSIDSSSESASLTISGLRPEDGADYYCQSHAGTNWVFGGGTKLTVL
B3: BD56-1496 (protein)
chain 1: QVQLQQSGPGLVKPSQTLSLTCAISGDSVSSNSAAWNWIRQSPSRGLEWLGRIYYRSKWYNDYAVSVKTRITINPDTSKNQFSLQLNSVTPEDTAVYYCARGGVGLDVDAFDIWGQGTMVTVSS
chain 2: QSVLTQPPSVSGAPGQRVTISCTGSSSNIGAGYDVHWYQQLPGTAPKLLIYGNSNRPSGVPDRFSGSKSGTSASLAITGLQAEDEADYYCQSYDSSLSGWVFGGGTKLTVL
B4: BD57-0253 (protein)
chain 1: QITLKESGPTLVKPTQTLTLTCTFSGFSLSTSGVGVGWIRQPPGKALEWLALIYWDDDKRYSPSLKSRLTITKDTSKNQVVLTMTNMDPVDTATYYCAHTWDKTSWTDNNWFDPWGQGTLVTVSS
chain 2: EIVLTQSPATLSLSPGERATLSCRASQSVSSYLAWYQQKPGQAPRLLIYDASNRATGIPARFSGSGSGTDFTLTISSLEPEDFAVYYCQQRSHWPITFGPGTRLEIK
B5: BD57-0274 (protein)
chain 1: QITLKESGPTLVKPTQTLTLTCTFSGFSLSTSGVGVGWIRQPPGKALEWLALIFWDDDKRYSPSLRSRLTIAKDTSKNQVVLTLTNIDPVDTATYYCAHRRDYYDSNDFYYAVDYWGQGTLVTVSA
chain 2: EIVMTQSPATLSVSPGERATLSCRASQSIRSNLAWYQQKPGQAPRLLIYDASTRATGISARFSGRGSGTEFTLTISSLQSEDLVVYYCQQYNDWPFTFGPGTKVDIK
B6: BD57-0257 (protein)
chain 1: QVQLVQSGAEVKRPGSSVKVSCTASGGSIGGTFTIFGINWVRQAPGQGLEWMGRIIPVPDITDTTQKFQGRVTFTADRSTSTAYMELSSLRSDDTAVYYCARDRGRFDYWGQGTLVTVSS
chain 2: DIVLTQTPLSLSVTPGQPASISCRSSQSLLHSDGETYLSWYLQRPSQPPQLLIYEVSNRFSGVPERFSGSGSGTDFTLKISRVEAEDVGVYYCMQSVQLRTFGQGTNLEIK
B7: BD56-302 (protein)
chain 1: EVQLVESGGGLVQPGRSLRLSCAASGFTFDDYAMHWVRQAPGKGLEWVSGISWNGDNIAYADSVKGRFTISRDNAKNSLYLQMNSLRPEDTAFYYCAKDILPGSSWYYGMDVWGQGTTVTVSS
chain 2: QSVLTQPPSASGTPGQRVTISCSGSSSHIGSNTVNWYQQLPGTAPKLLLYSNNQRPSGVPDRFSGSKSGTSASLAISGLQSEDEADYYCAAWDDSLNGYVFGTGTKVTVL
B8: BD57-0116 (protein)
chain 1: QVQLQESGPGLVKPSQTLSLTCTVSGGSISSADHYWSWIRQPPGKGLEWIGYIYYSGSTYYNPSLKSRVTILVDTSKNQFSLKLSSVTAADTAVYYCAQTGIEVTIIDYWGQGTLVTVSS
chain 2: QSALTQPASVSGSPGQSITISCTGTSSDVGGYNYVSWYRQHPGKAPKLMIYDVSNRPSGVSNRFSGSKSGNTASLTISGLQAEDEADYYCSSFTSSSTVLVFGGGTKLTVL
B9: BD57-0158 (protein)
chain 1: QITLKESGPTLVKPTQTLTLTCTFSGFSLSTSGVGVGWIRQPPGKALEWLALIYWDDDKRYSPSLKSRLTITKDTSKNQVVLTMTNMDPVDTATYYCAHSEGWEWLDSFWFDPWGQGTLVTVSS
chain 2: EIVMTQSPATLSVSPGERATLSCRASQSVSSNLAWYQQKPGQAPRLLIYGASTRATDIPARFSGSGSGTEFTLTISSLQSEDFAVYYCQQYNNWWTFGQGTKVEIK
B10: BD56-1495 (protein)
chain 1: EVQLVESGGGLVKPGGSLRLSCAASGFTFSSYSMNWVRQAPGKGLEWVSSISSSSSYIYYADSVKGRFTISRDNAKNSLYLQMNSLRAEDTAVYYCARSGIAHNWFDPWGQGTLVTVSS
chain 2: QPVLTQPPSASASLGASVTLTCTLSSGYSNYKVDWYQQRPGKGPRFVMRVGTGGIVGSKGDGIPDRFSVLGSGLNRYLTIKNIQEEDESDYHCGADHGSGSNFLWVFGGGTKLTVL

target: SARS-CoV-2 Omicron BA.1 spike pseudovirus; assay: pseudovirus neutralization IC50; higher = weaker neutralization
Method: (§1)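 Single-round VSV luciferase pseudovirus mixed with antibody dilutions for 1 h and put on Huh-7 cells for about a day; IC50 from the dose curve.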

Row | Binder | pseudovirus neutralization IC50 [µg/mL]
1 | B1 | > 10
2 | B2 | > 10
3 | B3 | > 10
4 | B4 | > 10
5 | B5 | > 10
6 | B6 | > 10
7 | B7 | 0.0189
8 | B8 | > 10
9 | B9 | > 10
10 | B10 | > 10

target: SARS-CoV-2 Omicron BA.2 spike pseudovirus; assay: as above
Method: as §1

Row | Binder | pseudovirus neutralization IC50 [µg/mL]
11 | B1 | > 10
12 | B2 | > 10
13 | B3 | > 10
14 | B4 | > 10
15 | B5 | 0.492
16 | B6 | > 10
17 | B7 | 0.0213
18 | B8 | 0.0191
19 | B9 | > 10
20 | B10 | > 10

target: SARS-CoV-2 Omicron BA.2.75 spike pseudovirus; assay: as above
Method: as §1

Row | Binder | pseudovirus neutralization IC50 [µg/mL]
21 | B1 | > 10
22 | B2 | > 10
23 | B3 | > 10
24 | B4 | > 10
25 | B5 | > 10
26 | B6 | > 10
27 | B7 | > 10
28 | B8 | 0.018
29 | B9 | > 10
30 | B10 | > 10

target: SARS-CoV-2 Omicron BA.2.75.2 spike pseudovirus; assay: as above
Method: as §1

Row | Binder | pseudovirus neutralization IC50 [µg/mL]
31 | B1 | > 10
32 | B2 | > 10
33 | B3 | > 10
34 | B4 | > 10
35 | B5 | > 10
36 | B6 | > 10
37 | B7 | > 10
38 | B8 | 0.0393
39 | B9 | > 10
40 | B10 | > 10

target: SARS-CoV-2 Omicron BA.5 spike pseudovirus; assay: as above
Method: as §1

Row | Binder | pseudovirus neutralization IC50 [µg/mL]
41 | B1 | 0.0539
42 | B2 | > 10
43 | B3 | > 10
44 | B4 | > 10
45 | B5 | 0.216
46 | B6 | > 10
47 | B7 | 0.392
48 | B8 | 0.01
49 | B9 | > 10
50 | B10 | > 10

target: SARS-CoV-2 Omicron BM.1.1.1 spike pseudovirus; assay: as above
Method: as §1

Row | Binder | pseudovirus neutralization IC50 [µg/mL]
51 | B1 | > 10
52 | B2 | > 10
53 | B3 | > 10
54 | B4 | > 10
55 | B5 | > 10
56 | B6 | > 10
57 | B7 | > 10
58 | B8 | 0.0201
59 | B9 | > 10
60 | B10 | > 10

target: SARS-CoV-2 Omicron BQ.1.1 spike pseudovirus; assay: as above
Method: as §1

Row | Binder | pseudovirus neutralization IC50 [µg/mL]
61 | B1 | > 10
62 | B2 | > 10
63 | B3 | > 10
64 | B4 | > 10
65 | B5 | > 10
66 | B6 | > 10
67 | B7 | > 10
68 | B8 | 0.0254
69 | B9 | > 10
70 | B10 | > 10

target: SARS-CoV-2 Omicron BR.2 spike pseudovirus; assay: as above
Method: as §1

Row | Binder | pseudovirus neutralization IC50 [µg/mL]
71 | B1 | > 10
72 | B2 | > 10
73 | B3 | > 10
74 | B4 | > 10
75 | B5 | > 10
76 | B6 | > 10
77 | B7 | > 10
78 | B8 | 0.0217
79 | B9 | > 10
80 | B10 | > 10

target: SARS-CoV-2 Omicron CA.1 spike pseudovirus; assay: as above
Method: as §1

Row | Binder | pseudovirus neutralization IC50 [µg/mL]
81 | B1 | > 10
82 | B2 | > 10
83 | B3 | > 10
84 | B4 | > 10
85 | B5 | > 10
86 | B6 | > 10
87 | B7 | > 10
88 | B8 | 0.0296
89 | B9 | > 10
90 | B10 | > 10

target: SARS-CoV-2 Omicron XBB spike pseudovirus; assay: as above
Method: as §1

Row | Binder | pseudovirus neutralization IC50 [µg/mL]
91 | B1 | > 10
92 | B2 | > 10
93 | B3 | > 10
94 | B4 | > 10
95 | B5 | > 10
96 | B6 | > 10
97 | B7 | > 10
98 | B8 | 0.0254
99 | B9 | > 10
100 | B10 | > 10

target: SARS-CoV-2 early D614G spike pseudovirus; assay: as above
Method: as §1

Row | Binder | pseudovirus neutralization IC50 [µg/mL]
101 | B1 | > 10
102 | B2 | > 10
103 | B3 | > 10
104 | B4 | > 10
105 | B5 | > 10
106 | B6 | > 10
107 | B7 | > 10
108 | B8 | > 10
109 | B9 | > 10
110 | B10 | > 10
